molecular target: O. volvulus iPGM (Onchocerca volvulus, UniProt I6LDA6); assay: PGM enzyme-coupled bioluminescent end point assay (Kinase-Glo Plus); assay type: biochemical; settings: Table 2; PGM concentration as in Table 1 (20 nM); † estimated from incomplete curves

Chains of the proteins cited; added tags and fusions are not shown. Lines headed by an entry give the natural chain unless they say otherwise; changes in a name come on top.
UniProt I6LDA6: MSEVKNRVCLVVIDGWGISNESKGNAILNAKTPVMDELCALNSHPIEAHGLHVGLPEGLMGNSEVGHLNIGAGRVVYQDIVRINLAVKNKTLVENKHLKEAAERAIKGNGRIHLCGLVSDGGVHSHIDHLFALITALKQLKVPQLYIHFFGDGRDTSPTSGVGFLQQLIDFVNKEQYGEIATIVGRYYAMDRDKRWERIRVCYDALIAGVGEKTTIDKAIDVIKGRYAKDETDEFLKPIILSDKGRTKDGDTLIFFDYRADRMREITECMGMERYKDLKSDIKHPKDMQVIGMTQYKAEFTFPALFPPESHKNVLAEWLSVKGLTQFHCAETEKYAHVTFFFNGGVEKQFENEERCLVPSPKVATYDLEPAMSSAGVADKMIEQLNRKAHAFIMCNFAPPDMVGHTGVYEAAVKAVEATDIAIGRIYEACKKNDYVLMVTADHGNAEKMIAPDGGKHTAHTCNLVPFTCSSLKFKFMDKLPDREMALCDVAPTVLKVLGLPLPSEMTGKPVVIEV

Compound	pIC50 O. volvulus iPGM
CC(=O)N[C@H](Cc1ccc(O)cc1)C(=O)N[C@@H](CC(=O)O)C(=O)N[C@@H](Cc1ccc(O)cc1)C(=O)N1CCC[C@H]1C(=O)NCC(=O)N[C@@H](CC(=O)O)C(=O)N[C@@H](Cc1ccc(O)cc1)C(=O)N[C@@H](CO)C(=O)N[C@@H](Cc1ccc(O)cc1)C(=O)N[C@@H](CC(C)C)C(=O)N[C@@H](Cc1ccc(O)cc1)C(=O)NCC(=O)N[C@H](C(=O)N[C@@H](CS)C(=O)NCC(N)=O)[C@@H](C)O [Ce-L2]	5.18 ^†

molecular target: D. immitis iPGM (Dirofilaria immitis, UniProt F4ZE01); assay: as above; settings: Table 1; enzyme 10 nM; NA = no appreciable inhibitory activity

Compound	pIC50, apparent D. immitis iPGM
CC[C@H](C)[C@@H]1NC(=O)[C@H](CCC(=O)O)NC(=O)[C@@H]2CCCN2C(=O)[C@H](C)NC(=O)[C@H](CC(N)=O)NC(=O)[C@@H]2CCCN2C(=O)[C@H](Cc2c[nH]c3ccccc23)NC(=O)[C@H](CO)NC(=O)[C@@H](Cc2ccc(O)cc2)NC(=O)CSC[C@@H](C(=O)N[C@@H](CS)C(=O)NCC(N)=O)NC(=O)[C@H](CCCCN)NC(=O)[C@H](Cc2c[nH]c3ccccc23)NC1=O [Bm-1]	5.99
CC(C)C[C@@H]1NC(=O)[C@@H](Cc2ccc(O)cc2)NC(=O)CSC[C@@H](C(=O)N[C@@H](CC(N)=O)C(=O)N[C@H](C(=O)N[C@@H](CS)C(=O)NCC(N)=O)[C@@H](C)O)NC(=O)[C@H](CC(N)=O)NC(=O)[C@@H]2CCCN2C(=O)[C@H](Cc2c[nH]c3ccccc23)NC(=O)[C@H](CCC(=O)O)NC1=O [Bm-4]	6.21
CC(C)C[C@@H]1NC(=O)[C@@H](Cc2ccc(O)cc2)NC(=O)CSC[C@@H](C(=O)N[C@@H](CO)C(=O)N[C@H](C(=O)N[C@@H](CS)C(=O)NCC(N)=O)[C@@H](C)O)NC(=O)[C@H](CC(N)=O)NC(=O)[C@@H]2CCCN2C(=O)[C@H](Cc2c[nH]c3ccccc23)NC(=O)[C@H](CC(=O)O)NC1=O [Bm-5]	6.10
C[C@@H](O)[C@H](NC(=O)[C@H](CO)NC(=O)[C@@H]1CSCC(=O)N[C@H](Cc2ccc(O)cc2)C(=O)N2CCC[C@H]2C(=O)N[C@@H](CCC(=O)O)C(=O)N[C@@H](Cc2c[nH]c3ccccc23)C(=O)N2CCC[C@H]2C(=O)N[C@@H](CC(N)=O)C(=O)N1)C(=O)N[C@@H](CS)C(=O)NCC(N)=O [Bm-6]	6.26
CC(C)[C@@H]1NC(=O)[C@H](C)NC(=O)[C@@H](Cc2ccc(O)cc2)NC(=O)CSC[C@@H](C(=O)N[C@@H](CCCNC(=N)N)C(=O)N[C@H](C(=O)N[C@@H](CS)C(=O)NCC(N)=O)[C@@H](C)O)NC(=O)[C@H](CC(N)=O)NC(=O)[C@@H]2CCCN2C(=O)[C@H](Cc2c[nH]c3ccccc23)NC1=O [Bm-7]	5.42
CC(C)C[C@H](NC(=O)[C@H](Cc1ccc(O)cc1)NC(=O)[C@@H]1CSCC(=O)N[C@H](Cc2ccc(O)cc2)C(=O)N[C@@H](CC(=O)O)C(=O)N[C@@H](Cc2ccc(O)cc2)C(=O)N2CCC[C@H]2C(=O)NCC(=O)N[C@@H](CC(=O)O)C(=O)N[C@@H](Cc2c[nH]cn2)C(=O)N1)C(=O)N[C@@H](Cc1ccc(O)cc1)C(=O)NCC(=O)N[C@H](C(=O)N[C@@H](CS)C(=O)NCC(N)=O)[C@@H](C)O [Ce-1]	8.04
CC(C)C[C@H](NC(=O)[C@H](Cc1ccc(O)cc1)NC(=O)[C@@H]1CSCC(=O)N[C@H](Cc2ccc(O)cc2)C(=O)N[C@@H](CC(=O)O)C(=O)N[C@@H](Cc2ccc(O)cc2)C(=O)N2CCC[C@H]2C(=O)NCC(=O)N[C@@H](CC(=O)O)C(=O)N[C@@H](Cc2ccc(O)cc2)C(=O)N1)C(=O)N[C@@H](Cc1ccc(O)cc1)C(=O)NCC(=O)N[C@H](C(=O)N[C@@H](CS)C(=O)NCC(N)=O)[C@@H](C)O [Ce-2]	8.21

same assay, conditions: Table 2; PGM concentration as in Table 1 (10 nM); † estimated from incomplete curves

Compound	pIC50 D. immitis iPGM
CC(C)C[C@H](NC(=O)[C@H](Cc1ccc(O)cc1)NC(=O)[C@@H]1CSCC(=O)N[C@H](Cc2ccc(O)cc2)C(=O)N[C@@H](CC(=O)O)C(=O)N[C@@H](Cc2ccc(O)cc2)C(=O)N2CCC[C@H]2C(=O)NCC(=O)N[C@@H](CC(=O)O)C(=O)N[C@@H](Cc2ccc(O)cc2)C(=O)N1)C(=O)N[C@@H](Cc1ccc(O)cc1)C(=O)NCC(=O)N[C@H](C(=O)N[C@@H](CO)C(=O)NCC(N)=O)[C@@H](C)O [Ce-2S]	6.01
CC(C)C[C@H](NC(=O)[C@H](Cc1ccc(O)cc1)NC(=O)[C@@H]1CSCC(=O)N[C@H](Cc2ccc(O)cc2)C(=O)N[C@@H](CC(=O)O)C(=O)N[C@@H](Cc2ccc(O)cc2)C(=O)N2CCC[C@H]2C(=O)NCC(=O)N[C@@H](CC(=O)O)C(=O)N[C@@H](Cc2ccc(O)cc2)C(=O)N1)C(=O)N[C@@H](Cc1ccc(O)cc1)C(=O)NCC(=O)N[C@H](C(N)=O)[C@@H](C)O [Ce-2b]	5.96
CC(C)C[C@H](NC(=O)[C@H](Cc1ccc(O)cc1)NC(=O)[C@@H]1CSCC(=O)N[C@H](Cc2ccc(O)cc2)C(=O)N[C@@H](CC(=O)O)C(=O)N[C@@H](Cc2ccc(O)cc2)C(=O)N2CCC[C@H]2C(=O)NCC(=O)N[C@@H](CC(=O)O)C(=O)N[C@@H](Cc2ccc(O)cc2)C(=O)N1)C(=O)N[C@@H](Cc1ccc(O)cc1)C(=O)NCC(N)=O [Ce-2c]	5.70
CC(C)C[C@H](NC(=O)[C@H](Cc1ccc(O)cc1)NC(=O)[C@@H]1CSCC(=O)N[C@H](Cc2ccc(O)cc2)C(=O)N[C@@H](CC(=O)O)C(=O)N[C@@H](Cc2ccc(O)cc2)C(=O)N2CCC[C@H]2C(=O)NCC(=O)N[C@@H](CC(=O)O)C(=O)N[C@@H](Cc2ccc(O)cc2)C(=O)N1)C(N)=O [Ce-2e]	5.32
CC(=O)N[C@H](Cc1ccc(O)cc1)C(=O)N[C@@H](CC(=O)O)C(=O)N[C@@H](Cc1ccc(O)cc1)C(=O)N1CCC[C@H]1C(=O)NCC(=O)N[C@@H](CC(=O)O)C(=O)N[C@@H](Cc1ccc(O)cc1)C(=O)N[C@@H](CO)C(=O)N[C@@H](Cc1ccc(O)cc1)C(=O)N[C@@H](CC(C)C)C(=O)N[C@@H](Cc1ccc(O)cc1)C(=O)NCC(=O)N[C@H](C(=O)N[C@@H](CS)C(=O)NCC(N)=O)[C@@H](C)O [Ce-L2]	5.18 ^†

same assay, conditions: Table 2 rows marked *; PGM concentration 0.5 nM

Compound	pIC50 D. immitis iPGM
CC(C)C[C@H](NC(=O)[C@H](Cc1ccc(O)cc1)NC(=O)[C@@H]1CSCC(=O)N[C@H](Cc2ccc(O)cc2)C(=O)N[C@@H](CC(=O)O)C(=O)N[C@@H](Cc2ccc(O)cc2)C(=O)N2CCC[C@H]2C(=O)NCC(=O)N[C@@H](CC(=O)O)C(=O)N[C@@H](Cc2ccc(O)cc2)C(=O)N1)C(=O)N[C@@H](Cc1ccc(O)cc1)C(=O)NCC(=O)N[C@H](C(=O)N[C@@H](CS)C(=O)NCC(N)=O)[C@@H](C)O [Ce-2]	9.36
CC(C)C[C@H](NC(=O)[C@H](Cc1ccc(O)cc1)NC(=O)[C@@H]1CSCC(=O)N[C@H](Cc2ccc(O)cc2)C(=O)N[C@@H](CC(=O)O)C(=O)N[C@@H](Cc2ccc(O)cc2)C(=O)N2CCC[C@H]2C(=O)NCC(=O)N[C@@H](CC(=O)O)C(=O)N[C@@H](Cc2ccc(O)cc2)C(=O)N1)C(=O)N[C@@H](Cc1ccc(O)cc1)C(=O)NCC(=O)N[C@H](C(=O)N[C@@H](CS)C(N)=O)[C@@H](C)O [Ce-2a]	9.91
